These results are taken from US20230192660A1 (priority 2020, published 2023).

The chains behind the UniProt entries cited, without tags or fusion partners. Residues count along the entry.
UniProt P0C6X1, 2966-3267 limits assumed: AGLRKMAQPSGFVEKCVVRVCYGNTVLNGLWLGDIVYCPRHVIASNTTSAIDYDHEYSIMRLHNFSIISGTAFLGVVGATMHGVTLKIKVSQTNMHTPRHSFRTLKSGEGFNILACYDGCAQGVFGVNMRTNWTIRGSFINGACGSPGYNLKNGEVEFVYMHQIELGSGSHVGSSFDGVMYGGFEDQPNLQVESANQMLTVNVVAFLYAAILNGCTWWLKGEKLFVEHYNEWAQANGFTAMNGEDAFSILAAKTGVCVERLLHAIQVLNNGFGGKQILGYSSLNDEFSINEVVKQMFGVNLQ
UniProt P0C6X9, 3334-3635 limits assumed: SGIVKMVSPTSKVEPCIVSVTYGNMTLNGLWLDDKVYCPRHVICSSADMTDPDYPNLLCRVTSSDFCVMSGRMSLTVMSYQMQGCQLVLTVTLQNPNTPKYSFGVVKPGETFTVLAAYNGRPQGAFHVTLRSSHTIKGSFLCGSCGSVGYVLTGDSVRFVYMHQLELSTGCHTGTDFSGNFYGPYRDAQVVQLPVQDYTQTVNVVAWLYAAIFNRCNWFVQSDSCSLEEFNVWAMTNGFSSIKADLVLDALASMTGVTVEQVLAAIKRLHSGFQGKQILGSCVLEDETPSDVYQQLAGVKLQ

For test [1], the target named is HCoV229E Mpro (Human coronavirus 229E, UniProt P0C6X1).
Test [2] concerns the target SARS-CoV-2 mature Mpro (Severe acute respiratory syndrome coronavirus 2, UniProt P0DTD1).
For test [3], the target named is mature SARSCoV2 M^pro (Severe acute respiratory syndrome coronavirus 2, UniProt P0DTD1). The test is described as follows: In-vitro Mpro inhibition assay with fluorogenic peptide, mature enzyme. Type of test: biochemical, SARS-CoV-2. The following applies: read-out: IC50 SARSCov2 Mpro.
Test [4] addresses MERS Mpro (Middle East respiratory syndrome-related coronavirus, UniProt K9N7C7).
For test [5], the target named is SARS-Co-V2 MPro (Severe acute respiratory syndrome coronavirus 2, UniProt P0DTD1). The test can be described thus: Inhibition of SARS-Co-V2 MPro in vitro (Example 3, FIG. 7, preliminary data). The test is classed as biochemical, SARS-CoV-2. To be noted: read-out: concentration for 50% inhibition (IC50).
Test [6] has as its target MHV M^pro (UniProt P0C6X9). The test can be described thus: In-vitro Mpro inhibition assay, MHV enzyme. Type of test: biochemical, mouse hepatitis virus (MHV). To be noted: read-out: IC50 MHV Mpro.

For the compound `CC1(C)[C@@H]2[C@@H](C(=O)N[C@@H](C[C@@H]3CCNC3=O)C(=O)C(N)=O)N(C(=O)OCc3ccccc3)C[C@@H]21`, the IC50 came out at 610 nM in test [1], 90 nM in test [3] and 1400 nM in test [4]. Also, the “ΔTm Mpro” value in test [2] was 15.5 °C.

As for `CC(C)(C)NC(=O)N[C@H](C(=O)N1C[C@@H]2CCC[C@@H]2[C@H]1C(=O)N[C@@H](C[C@@H]1CCNC1=O)C(=O)C(N)=O)C(C)(C)C`, the IC50 in test [1] worked out at 1200 nM; in test [3], 70 nM; in test [4] it was 1300 nM; in test [5] it was 153 nM; in test [6], 310 nM. The “ΔTm Mpro” value in test [2] was 20.7 °C.

In the case of `CC(C)(C)C(=O)N[C@H](C(=O)N1C[C@H]2[C@@H]([C@H]1C(=O)N[C@@H](C[C@@H]1CCNC1=O)C(=O)C(N)=O)C2(C)C)C(C)(C)C`, the IC50 was 350 nM in test [1], 40 nM in test [3] and 160 nM in test [4]. In test [2], the “ΔTm Mpro” value was 21.3 °C.
